Compound potency records, mixed from different reports. Data source: NIAID ChemDB in PubChem.

All rows: growth or infection tests; agent: Candida albicans

Rows are shuffled and stem from different studies. Two numbers with a dash give a range or band. ECn is the concentration giving n% inhibition of infection, replication or growth. Blank or dashed fields: not listed here. A number after MIC or MFC names an inhibition level or a share of isolates.

{"smiles": "C[C@H]1[C@H](O)[C@@H](C)/C=C/C=C/C=C/C=C/C=C/C=C/C=C/[C@H](O[C@@H]2O[C@H](C)[C@@H](O)[C@H](N)[C@@H]2O)C[C@@H]2O[C@](O)(C[C@@H](O)C[C@@H](O)CC[C@H](O)[C@@H](O)C[C@@H](O)CC(=O)O[C@H]1C)C[C@H](O)[C@H]2C(=O)O", "endpoint": "MIC", "strain or isolate": "ATCC 90028", "result": "0.03 µg/mL"}
{"smiles": "CN1CCC2=C(CCCC2CCc2ccc(Br)cc2)C1", "endpoint": "MIC", "strain or isolate": "2005E", "result": "2 µg/mL"}
{"smiles": "Cc1c(N2CC[C@H](NC(=O)[C@H](C)N)C2)c(F)cn2c(=O)c(C(=O)O)cc(C3CC3)c12.Cl", "endpoint": "MIC", "strain or isolate": "CCH442", "result": ">100 µg/mL"}
{"smiles": "OC(Cn1cncn1)(Cn1cncn1)c1ccc(F)cc1F", "endpoint": "MIC", "strain or isolate": "YL 328", "read by": "broth dilution", "result": "512 µg/mL"}
{"smiles": "CCN1C2=NC[C@H](CC3CCCCC3)N2C[C@@H]1Cc1ccccc1", "endpoint": "EC50", "strain or isolate": "ATCC 10231", "result": ">64 µg/mL"}
{"smiles": "Cc1c(N2CC3CCC(N)C3C2)c(F)cn2c(=O)c(C(=O)O)cc(C3CC3)c12.Cl", "endpoint": "MIC", "strain or isolate": "CCH442", "result": ">100 µg/mL"}
{"smiles": "C1CCC(C[C@H]2CN=C3N2C[C@H](C2CCCCC2)N3CCC23CC4CC(CC(C4)C2)C3)CC1", "endpoint": "EC50", "strain or isolate": "ATCC 10231", "result": "9.3 µg/mL"}
{"smiles": "CC[C@@H](NC)[C@@H]1CCN(c2c(F)cn3c(=O)c(C(=O)O)cc(C4CC4)c3c2C)C1.Cl", "endpoint": "MIC", "strain or isolate": "CCH442", "result": ">100 µg/mL"}
{"smiles": "COc1cc2cc(/C=C/C(=O)c3ccc(Br)cc3)c(Cl)nc2cc1OC", "endpoint": "MIC", "strain or isolate": "ATCC 10231", "result": ">50 µg/mL"}
{"smiles": "CC1=C(N2CCC3CC(N)CCC32)C(F)=CN2C(=O)C(C(=O)O)=CC(C3CC3)C12", "endpoint": "MIC", "strain or isolate": "CCH442", "result": "<100 µg/mL"}
{"smiles": "Cc1c(N2CC(N)C3(C2)OCCO3)c(F)cn2c(=O)c(C(=O)O)cc(C3CC3)c12.Cl", "endpoint": "MIC", "strain or isolate": "CCH442", "result": ">100 µg/mL"}
{"smiles": "COc1cccc(C(CC(=O)c2ccccc2)C(C#N)C#N)c1OC", "endpoint": "MIC", "strain or isolate": "ATCC 10231", "result": ">50 µg/mL"}
{"smiles": "COc1ccc2c(Cc3cccc(C)c3)c3[n+](cc2c1OC)CCc1cc2c(cc1-3)OCO2.[Br-]", "endpoint": "MIC80", "strain or isolate": "Clinical isolate", "changes": "Fluconazole-resistant", "read by": "broth dilution", "result": "32 µg/mL"}
{"smiles": "COc1ccc(C(=O)CC(c2ccc3ccccc3c2)C(C#N)C#N)cc1OC", "endpoint": "MIC", "strain or isolate": "ATCC 10231", "result": ">50 µg/mL"}
{"smiles": "CC(C)OC(=O)c1ccc(C[N+]2=C(c3ccc(F)cc3F)c3cc4c(cc3CC2)OCO4)cc1.[Br-]", "endpoint": "MIC80", "strain or isolate": "Clinical isolate", "changes": "Fluconazole-resistant", "read by": "broth dilution", "result": ">64 µg/mL"}
{"smiles": "Cc1c(N2C[C@@H](N)C[C@@H]2C)c(F)cn2c(=O)c(C(=O)O)cc(C3CC3)c12", "endpoint": "MIC", "strain or isolate": "CCH442", "result": ">100 µg/mL"}
{"smiles": "CC(C)(C)C1CCC(CN2C3=NC[C@H](C4CCCCC4)N3C[C@@H]2C2CCCCC2)CC1", "endpoint": "MIC", "strain or isolate": "ATCC 10231", "result": "32–64 µg/mL"}
{"smiles": "CC(CCc1ccccc1)c1ccncc1", "endpoint": "MIC", "strain or isolate": "C316", "result": "31 µg/mL"}
{"smiles": "CC(C)C[C@@H]1CN2C(=NC[C@@H]2C2CCCCC2)N1CCC12CC3CC(CC(C3)C1)C2", "endpoint": "MIC", "strain or isolate": "ATCC 10231", "result": ">64 µg/mL"}
{"smiles": "Cc1c(N2CCC[C@H]2CN)c(F)cn2c(=O)c(C(=O)O)cc(C3CC3)c12", "endpoint": "MIC", "strain or isolate": "CCH442", "result": ">100 µg/mL"}
{"smiles": "CCN1C2=NC[C@H](C(C)(C)C)N2C[C@@H]1Cc1ccccc1", "endpoint": "MIC", "strain or isolate": "ATCC 10231", "result": ">250 µg/mL"}
{"smiles": "C[C@@H]1C[C@@H]([C@H](O)CC2CC(=O)NC(=O)C2)C(=O)[C@@H](C)C1", "endpoint": "MIC", "strain or isolate": "Isolate 5", "result": "0.53 µM"}
{"smiles": "c1ccc(CC2CCCc3cnccc32)cc1", "endpoint": "MIC", "strain or isolate": "2381E", "result": "31 µg/mL"}
{"smiles": "O=C(/C=C/c1ccc(Cl)cc1Cl)c1ccccc1", "endpoint": "MIC", "strain or isolate": "ATCC 10231", "result": ">50 µg/mL"}
{"smiles": "C[C@@H](c1nc(-c2ccc(C#N)cc2)cs1)[C@](O)(Cn1cnnc1)c1ccc(F)cc1F", "endpoint": "MIC", "strain or isolate": "Isogenic isolate 17 CDR", "result": "1 µg/mL"}
{"smiles": "Cc1c(N2CCNC(C)C2)c(F)cn2c(=O)c(C(=O)O)cc(C3CC3)c12.Cl", "endpoint": "MIC", "strain or isolate": "CCH442", "result": ">100 µg/mL"}
{"smiles": "Cc1c(N2C[C@@H]3CCC[C@@H](N)[C@H]3C2)c(F)cn2c(=O)c(C(=O)O)cc(C3CC3)c12.Cl", "endpoint": "MIC", "strain or isolate": "CCH442", "result": "50 µg/mL"}
{"smiles": "COc1cccc(C[N+]2(C)CCc3cc4c(cc3C2)OCO4)c1OC.[Br-]", "endpoint": "MIC80", "strain or isolate": "Clinical isolate", "changes": "Fluconazole-resistant", "read by": "broth dilution", "result": ">64 µg/mL"}
{"smiles": "CC(C)(C)C1CCC(CN2C3=NC[C@H](C4CCCCC4)N3C[C@@H]2CC2CCCCC2)CC1", "endpoint": "MIC", "strain or isolate": "ATCC 10231", "result": "10–16 µg/mL"}
{"smiles": "CC(=O)O.Cc1c(N2CCCNCC2)c(F)cn2c(=O)c(C(=O)O)cc(C3CC3)c12", "endpoint": "MIC", "strain or isolate": "CCH442", "result": ">100 µg/mL"}
{"smiles": "C[C@@H]1[C@H](O)[C@@H](C)/C=C/C=C/CC/C=C/C=C/C=C/C=C/C(O[C@H]2O[C@H](C)[C@@H](O)[C@H](N)[C@@H]2O)CC2O[C@](O)(CC(O)C(O)CCC(O)CC(O)CC(O)CC(=O)O[C@H]1C)CC(O)C2C(=O)O", "endpoint": "MIC", "strain or isolate": "MTCC 7315", "result": "150 µg/mL"}
{"smiles": "C[C@H](Cc1ccc(O)c(O)c1)[C@@H](C)Cc1ccc(O)c(O)c1", "endpoint": "MIC80", "strain or isolate": "CCC 128-2000", "read by": "broth dilution", "result": "250 µg/mL"}
{"smiles": "C[N+]1(Cc2ccc(Br)cc2)CCc2cc3c(cc2C1c1ccccc1)OCO3.[Br-]", "endpoint": "MIC80", "strain or isolate": "Clinical isolate", "changes": "Fluconazole-resistant", "read by": "broth dilution", "result": ">64 µg/mL"}
{"smiles": "Cc1c(N2CC[C@H]([C@@H](C)N)C2)c(F)cn2c(=O)c(C(=O)O)cc(C3CC3)c12.Cl", "endpoint": "MIC", "strain or isolate": "CCH442", "result": ">100 µg/mL"}
{"smiles": "Cc1c(N2CCC(N3CCCCC3)CC2)c(F)cn2c(=O)c(C(=O)O)cc(C3CC3)c12", "endpoint": "MIC", "strain or isolate": "CCH442", "result": ">100 µg/mL"}
{"smiles": "C1CCC([C@H]2CN3C(=NC[C@@H]3C3CCCCC3)N2CCC23CC4CC(CC(C4)C2)C3)CC1", "endpoint": "MIC", "strain or isolate": "ATCC 10231", "result": "20–32 µg/mL"}
{"smiles": "CC1=C(N2CC3CC3(N)C2)C(F)=CN2C(=O)C(C(=O)O)=CC(C3CC3)C12", "endpoint": "MIC", "strain or isolate": "CCH442", "result": ">100 µg/mL"}
{"smiles": "C1CCC(C[C@H]2CN3C(=NC[C@H]3CC3CCCCC3)N2CCC23CC4CC(CC(C4)C2)C3)CC1", "endpoint": "EC50", "strain or isolate": "ATCC 10231", "result": "2.9 µg/mL"}
{"smiles": "Cc1c(SCCN)c(F)cn2c(=O)c(C(=O)O)cc(C3CC3)c12.O=C(O)C(F)(F)F", "endpoint": "MIC", "strain or isolate": "CCH442", "result": ">100 µg/mL"}
{"smiles": "Clc1ccccc1CCC1CCCc2cnccc21", "endpoint": "MIC", "strain or isolate": "C316", "result": ">125 µg/mL"}
{"smiles": "Cc1c(N2CCCC(n3cccc3)C2)c(F)cn2c(=O)c(C(=O)O)cc(C3CC3)c12", "endpoint": "MIC", "strain or isolate": "CCH442", "result": ">100 µg/mL"}
{"smiles": "CC(C)C[C@@H]1CN2C(=NC[C@H]2C2CCCCC2)N1CCC12CC3CC(CC(C3)C1)C2", "endpoint": "EC50", "strain or isolate": "ATCC 10231", "result": "48.6 µg/mL"}

The first 4 rows once more:

smiles | endpoint | strain or isolate | changes | read by | result
C[C@H]1[C@H](O)[C@@H](C)/C=C/C=C/C=C/C=C/C=C/C=C/C=C/[C@H](O[C@@H]2O[C@H](C)[C@@H](O)[C@H](N)[C@@H]2O)C[C@@H]2O[C@](O)(C[C@@H](O)C[C@@H](O)CC[C@H](O)[C@@H](O)C[C@@H](O)CC(=O)O[C@H]1C)C[C@H](O)[C@H]2C(=O)O | MIC | ATCC 90028 |  |  | 0.03 µg/mL
CN1CCC2=C(CCCC2CCc2ccc(Br)cc2)C1 | MIC | 2005E |  |  | 2 µg/mL
Cc1c(N2CC[C@H](NC(=O)[C@H](C)N)C2)c(F)cn2c(=O)c(C(=O)O)cc(C3CC3)c12.Cl | MIC | CCH442 |  |  | >100 µg/mL
OC(Cn1cncn1)(Cn1cncn1)c1ccc(F)cc1F | MIC | YL 328 |  | broth dilution | 512 µg/mL